Compound potency records, mixed from different reports. Data source: NIAID ChemDB in PubChem.

Shared fields: whole-cell or culture tests; organism: Varicella zoster virus; method: plaque count; endpoint: EC50

ECn is the concentration giving n% inhibition of infection, replication or growth.

Nc1nc(=S)n([C@@H]2O[C@H](CO)[C@@H](O)[C@@H]2O)cc1/C=C/c1ccccc1 ; cell line: MRC-5 ; strain: CAQU (TK+) ; value: >235.4 µM
O=c1[nH]c(=O)n([C@H]2C[C@H](O)[C@@H](CO)O2)cc1/C=C/Br ; cell line: HEF ; strain: OKA ; value: 0.0016 µg/mL
c1ccc(-c2cc3ccccn3c2)nc1 ; cell line: MRC-5 ; strain: G-31 ; value: 10 µM
Nc1nc2c(ncn2[C@@H]2CO[C@H](CO)[C@@H](O)C2)c(=O)[nH]1 ; value: 1–10 µM
Nc1nc(N)c2ncn(CCOCP(=O)(O)O)c2n1 ; cell line: HEL ; strain: OKA (TK+) ; value: 4.6 µM
OC[C@H]1O[C@@H](c2cc(C(F)(F)F)c(F)cc2F)C[C@@H]1O ; cell line: HEL ; strain: (TK-)/YS/R ; value: >200 µM
Nc1nc(=O)n([C@@H]2O[C@H](CO)[C@@H](O)[C@@H]2F)cc1I ; cell line: HEL ; strain: YS/R (TK-) ; value: 22.1 µM
O=C(O)CP(=O)(O)O ; strain: Kawaguchi (BrdU-resistant) ; value: 4.25 µg/mL
COc1ccc(OC)c(-c2cc3ccccn3c2)c1 ; cell line: MRC-5 ; strain: G-31 ; value: >40 µM
Nc1nc2c(ncn2CCC(CO)CO)c(=O)[nH]1 ; cell line: HEL ; strain: OKA (TK+) ; value: 0.6 µg/mL
O=c1[nH]c(=S)n([C@@H]2O[C@H](CO)[C@@H](O)[C@@H]2O)cc1/C=C/c1ccccc1 ; cell line: MRC-5 ; strain: HOSEN (TK+) ; value: 8.5 µM
O=c1[nH]c(=O)n([C@H]2C[C@H](O)[C@@H](CO)O2)cc1/C=C/Cl ; cell line: HEL ; strain: 07/1 (TK-) ; value: >138 µM
Cc1cn([C@@H]2O[C@H](CO)[C@H]2CO)c(=O)[nH]c1=O ; cell line: HFF ; strain: V8602/5-1-1 ; value: 0.008 µg/mL
O=c1[nH]c(=S)n([C@@H]2O[C@H](CO)[C@@H](O)[C@@H]2O)cc1/C=C/Br ; cell line: MRC-5 ; strain: HOSEN (TK+) ; value: 5.3 µM
Cc1cc([C@H]2C[C@H](O)[C@@H](CO)O2)c(F)cc1Cl ; cell line: HEL ; strain: (TK-)/YS/R ; value: >200 µM
Cn1cc(C(=O)NCc2ccc(Cl)cc2)c(=O)c2cc(CN3CCOCC3)ccc21 ; cell line: HFF ; strain: CA varicella isolate ; value: 0.5 µM
O=c1[nH]c(=O)n([C@H]2C[C@H](O)[C@@H](CO)O2)cc1I ; cell line: HEF ; strain: CAQU ; value: 0.37 µg/mL
Nc1nc(=O)n([C@H]2C[C@H](O)[C@@H](CO)O2)cc1/C=C\Cl ; cell line: HEL ; strain: YS ; value: 0.3 µg/mL
CCCCc1ccc2cc(-c3ccccc3)cn2c1 ; cell line: MRC-5 ; strain: G-31 ; value: >40 µM
O=C(O)P(=O)(O)O ; cell line: HEL ; strain: 07/1 (TK-) ; value: 65.7 µM
O=C(NCc1ccc(Cl)cc1)c1c[nH]c2ccc(C#CCO)cc2c1=O ; strain: COH ; value: 0.2 µM
COc1nc(=O)n([C@H]2C[C@H](O)[C@@H](CO)O2)cc1/C=C/Cl ; cell line: HEL ; strain: 7/01 (TK-) ; value: >40 µg/mL
CC1(C)[C@H](CCO)C[C@@H]1n1nnc2c(=O)[nH]cnc21 ; strain: YS (TK+) ; value: >50 µg/mL
Cc1cc([C@H]2C[C@H](O)[C@@H](CO)O2)c(F)cc1F ; cell line: HEL ; strain: (TK+)/OKA ; value: >200 µM
Nc1nc2c(ncn2COC(CO)CO)c(=O)[nH]1 ; cell line: HEL ; strain: OKA (TK+) ; value: 0.52 µM
CC(O)c1cn([C@@H]2O[C@H](CO)[C@@H](O)[C@@H]2O)c(=S)nc1N ; cell line: MRC-5 ; strain: Kanno-Kohmura (TK-) ; value: >244.8 µM
O=c1[nH]c(=O)n([C@H]2C[C@H](O)[C@@H](CO)O2)cc1/C=C/I ; cell line: HEF ; strain: KANNO ; value: 0.0005 µg/mL
O=c1[nH]c(=O)n([C@H]2C[C@H](O)[C@@H](CO)O2)cc1/C=C/Br ; cell line: HEL ; strain: 07/1 (TK-) ; value: 91.9 µM
O=C(O)/C=C/c1cn([C@@H]2O[C@H](CO)[C@@H](O)[C@@H]2O)c(=S)[nH]c1=O ; cell line: MRC-5 ; strain: CAQU (TK+) ; value: 40.5 µM
OC[C@H]1O[C@H](c2cc(I)c(F)cc2F)C[C@@H]1O ; cell line: HEL ; strain: (TK-)/YS/R ; value: >200 µM
Nc1nc2c(ncn2C[C@]2(CO)C[C@H]2CO)c(=O)[nH]1 ; cell line: HEL ; strain: YS (TK+) ; value: 0.04 µg/mL
O=C(O)CP(=O)(O)O ; cell line: HEL ; strain: 07/1 (TK-) ; value: 57.1 µM
Brc1ccc(-c2cc3ccccn3c2)cc1 ; cell line: MRC-5 ; strain: G-31 ; value: >40 µM
CC1(C)[C@H](CCO)C[C@@H]1n1cnc2c(N)ncnc21 ; strain: OKA (TK+) ; value: 20 µg/mL
C=Cc1cn([C@@H]2O[C@H](CO)[C@@H](O)[C@@H]2O)c(=S)nc1N ; cell line: MRC-5 ; strain: Kanno-Kohmura (TK-) ; value: >266.3 µM
NC1=NC2C(C=CN2CC(CO)CCO)C(=O)N1 ; cell line: HEL ; strain: YS/R (TK-) ; value: 24.6 µM
C=Cc1cn([C@H]2C[C@H](O)[C@@H](CO)O2)c(=S)[nH]c1=O ; cell line: MRC-5 ; strain: Kanno-Kohmura (TK-) ; value: >290.3 µM
OC[C@H]1O[C@H](c2cc(F)c(F)cc2F)C[C@@H]1O ; cell line: HEL ; strain: TK+/YS ; value: >200 µM
CCc1cn([C@@H]2O[C@H](CO)[C@@H](O)[C@@H]2O)c(=S)[nH]c1=O ; cell line: MRC-5 ; strain: Kanno-Kohmura (TK-) ; value: >264.9 µM
O=c1[nH]c(=O)n([C@@H]2O[C@H](CO)[C@@H](O)[C@@H]2O)cc1/C=C/Cl ; strain: Kawaguchi acyclovir-resistant mutant A8 ; value: 0.000393 µg/mL
CC1(C)[C@H](CCO)C[C@@H]1n1cnc2c(=O)[nH]cnc21 ; strain: YS (TK+) ; value: >50 µg/mL
Cc1cn([C@H]2C[C@H](O)[C@@H](CO)O2)c(=S)nc1N ; cell line: MRC-5 ; strain: Kanno-Kohmura (TK-) ; value: >300.8 µM

Repeating the first 5 entries:

Nc1nc(=S)n([C@@H]2O[C@H](CO)[C@@H](O)[C@@H]2O)cc1/C=C/c1ccccc1 ; cell line: MRC-5 ; strain: CAQU (TK+) ; value: >235.4 µM
O=c1[nH]c(=O)n([C@H]2C[C@H](O)[C@@H](CO)O2)cc1/C=C/Br ; cell line: HEF ; strain: OKA ; value: 0.0016 µg/mL
c1ccc(-c2cc3ccccn3c2)nc1 ; cell line: MRC-5 ; strain: G-31 ; value: 10 µM
Nc1nc2c(ncn2[C@@H]2CO[C@H](CO)[C@@H](O)C2)c(=O)[nH]1 ; value: 1–10 µM
Nc1nc(N)c2ncn(CCOCP(=O)(O)O)c2n1 ; cell line: HEL ; strain: OKA (TK+) ; value: 4.6 µM

a–b is a range or a potency band. Rows are shuffled and stem from different studies.